Results of unrelated studies side by side (data: NIAID ChemDB).

Common to all: whole-cell or culture tests; organism: Mycobacterium tuberculosis

a–b is a range or a potency band. ECn: concentration that inhibits the pathogen or its effect by n%. An empty or dashed field is not shown. Lines come from different laboratories, so protocols vary. MIC50, MIC90 and the like: level of inhibition, or share of isolates inhibited. Inhibition is in % at the dose shown (toxicity tests: loss of growth or viability). MIC bound comes from a single tested concentration.

compound | read by | dose | strain or isolate | measure | value
CCc1ccc(OCc2cn(-c3ccc(OC[C@@]4(C)Cn5cc([N+](=O)[O-])nc5O4)cc3)nn2)cc1 | broth dilution / resazurin | - | ss18b non-replicating phase | MIC | 16.8 µM
CCOC(=O)N1CCN(N=Nc2c(C(=O)OC)n[nH]c2C)CC1 | BACTEC | 12.5 µg/mL | H37Rv | inhibition | 90.49%
CCCCc1nc(Cl)c(C2C(C(=O)Nc3ccccc3[N+](=O)[O-])=C(C)NC(C)=C2C(=O)Nc2ccccc2[N+](=O)[O-])[nH]1 | - | - | H37Rv | MIC | 3.13 µg/mL
NC(=S)Nc1ccc(C(=O)O)cc1 | - | - | A67 | MIC | 250 µM
CC1CCc2c(c(CC3CC(=O)NC(=O)C3)nn2-c2ccccc2)C1 | resazurin | 6.25 µg/mL | H37Rv | inhibition | 13%
Cc1ccc(C)n1-c1nc(-c2ccc(Cl)cc2)cs1 | resazurin | - | H37Rv | MIC | 0.8 µg/mL
Cc1cc(=O)n2c(n1)Nc1ccc(Cl)cc1C2 | BACTEC | - | H37Rv | MIC bound | >12.5 µg/mL
C=C(C)[C@@H]1CC[C@]2(C)CCC3(C)[C@H](CC[C@@H]4[C@@]5(C)CC[C@H](O)C(C)(C)[C@@H]5CC[C@]43C)[C@@H]12 | - | - | H37Rv (ATCC 27294) | MIC | 128 µg/mL
C[C@H]1Cc2c(C(=O)O)ccc(O)c2C(=O)O1 | - | - | H37Ra | MIC | >200 µg/mL
Cc1c(Cl)cccc1N=Nc1c(O)c2ccc([N+](=O)[O-])cc2[nH]c1=O | resazurin | - | H37Rv | MIC | <6.25 µg/mL
O=C(Nc1ccc(F)cc1)c1cc(Br)ccc1O | - | - | CNCTC MY331/88 | MIC | 8 µM
O=c1oc2ccc3ccccc3c2c(O)c1N=Nc1ccc([N+](=O)[O-])cc1 | resazurin | - | H37Rv | MIC | <6.25 µg/mL
Cc1ccc(C)n1-c1ccc(C(=O)NN2C(=O)c3c(Br)c(Br)c(Br)c(Br)c3C2=O)cc1 | resazurin | - | H37Rv | MIC | 0.4 µg/mL
CCn1c(=O)nc2n(-c3ccc(SC)cc3)c3ccccc3nc-2c1=O | BACTEC | - | H37Rv | MIC bound | >12.5 µg/mL
CCn1cc(C(=O)O)c(=O)c2cc(F)c(N3CCN(CN4C(=O)C(=O)c5cc(Br)ccc54)CC3)cc21 | BACTEC | - | H37Rv | EC50 | <12.5 µg/mL
Cc1ccn2c(C(=O)NCc3ccc(N4CCC(Oc5cccc(C(F)(F)F)c5)CC4)c(F)c3)c(C)nc2c1 | resazurin | - | H37Rv | MIC90 | <2 µM
CC(C)=CCC/C(C)=C/COC(=O)C=CC(=O)NC(N)=O | BACTEC | 12.5 µg/mL | H37Rv | inhibition | 93%
COc1ccc(Cc2c(C)c(C#N)c3[nH]c4ccccc4n3c2=O)cc1 | resazurin | - | V4207 | MIC90 | 0.5–2 µg/mL
CCOC(=O)/C=C/c1ccc(OC)cc1 | resazurin | - | H37Rv | MIC | 485 µM
C[C@]1(COc2ccc(-c3cc(COc4ccc(OC(F)(F)F)cc4)on3)cc2)Cn2cc([N+](=O)[O-])nc2O1 | broth dilution / resazurin | - | ss18b non-replicating phase | MIC | 0.94 µM
Nc1ccc(-c2csc(-c3ccccc3)n2)c(Cl)c1 | BACTEC | 12.5 µg/mL | H37Rv | inhibition | 95%
CCCCc1nc(Cl)c(C2C(C(=O)Nc3cccc(C)c3)=C(C)NC(C)=C2C(=O)Nc2cccc(C)c2)[nH]1 | resazurin | 6.25 µg/mL | H37Rv | inhibition | 56%
Cc1ccn2c(C(=O)NCc3ccc(N4CCC5(CC4)OC[C@H](C)O5)c(F)c3)c(C)nc2c1 | resazurin | - | H37Rv | MIC90 | <2 µM
NOCc1csc(N)n1 | BACTEC | - | H37Rv | MIC bound | >6.25 µg/mL
O=c1oc2ccc(-c3ccccc3)cc2c(O)c1N=Nc1ccc(F)cc1 | resazurin | - | H37Rv | MIC | <6.25 µg/mL
CCOC(=O)c1ccc(NC(=O)c2cc(Br)ccc2O)cc1 | - | - | CNCTC MY331/88 | MIC | 4 µM
Cc1ccn2c(C(=O)NCc3ccc(N4CCN(c5ccc(S(F)(F)(F)(F)F)cc5)CC4)cc3)c(C)nc2c1 | resazurin | - | H37Rv | MIC90 | <2 µM
C#CCOCC1CN(c2ccccc2)C(=O)O1 | BACTEC | - | H37Rv | MIC bound | >12.5 µg/mL
Cc1ccc(C)n1-c1ccc(C(=O)NN2C(=O)c3c(Cl)c(Cl)c(Cl)c(Cl)c3C2=O)cc1 | resazurin | - | H37Rv | MIC | 0.4 µg/mL
O=c1[nH]c2c(Cl)c(Cl)ccc2c(O)c1N=Nc1ccc([N+](=O)[O-])cc1 | resazurin | - | H37Rv | MIC | <6.25 µg/mL
Cc1ccc(C)n1-c1ccc(C(=O)NN2C(=O)c3ccc([N+](=O)[O-])cc3C2=O)cc1 | resazurin | - | H37Rv | MIC | 6.25 µg/mL
C[C@]1(COc2ccc(-n3cc(-c4ccc(C(F)(F)F)cc4)nn3)cc2)Cn2cc([N+](=O)[O-])nc2O1 | broth dilution / resazurin | - | H37Rv | MIC | 1.03 µM
Nc1[nH][nH]c(=O)c1N | BACTEC | 12.5 µg/mL | H37Rv | inhibition | 13%
CC/C(C)=C(/NC(=O)[C@H](C)NC(=O)[C@@H]1CCC=NN1C(=O)[C@@H](NC(=O)[C@H](C)NC(=O)C(N)(CO)CO)[C@H](C)N)C(=O)N[C@@H](CO)C(=O)O | - | - | Capreomycin-resistant | MIC | 12.5 µg/mL
C[C@]1(COc2ccc(-n3cc(-c4cccc(C(F)(F)F)c4)nn3)cc2)Cn2cc([N+](=O)[O-])nc2O1 | broth dilution / resazurin | - | H37Rv | MIC | 8.23 µM
COc1ccc(-c2csc(-n3c(C)ccc3C)n2)cc1 | resazurin | - | H37Rv | MIC | 6.25 µg/mL
CCOC(=O)c1ccc(NC(N)=S)cc1 | - | - | A67 | MIC | 250 µM
CN(C)n1c(O)c(N=O)sc1=S | BACTEC | - | H37Rv | MIC bound | >12.8 µg/mL
CC1(C)S[C@@H]2[C@H](NC(=O)[C@H](N)c3ccccc3)C(=O)N2[C@H]1C(=O)O | - | - | 1789 | MIC | 92 µM
Cc1ccc2nc(C)c(C(=O)NCc3ccc(N4CCS(=O)(=O)CC4)cc3)n2c1 | resazurin | - | H37Rv | MIC90 | <2 µM
O=c1oc2ccc3ccccc3c2c(O)c1N=Nc1ccccc1 | resazurin | 6.25 µg/mL | H37Rv | inhibition | 62%
CCn1cc(C(=O)O)c(=O)c2cc(F)c(N3CCN(CN4C(=O)C(=O)c5cc(Cl)ccc54)CC3)cc21 | BACTEC | 12.5 µg/mL | H37Rv | inhibition | 95%
O=S(=O)(Nc1nccs1)c1ccc(N=Cc2cn(Cc3ccccc3)c3ccccc23)cc1 | BACTEC | - | H37Rv | MIC bound | <6.25 µg/mL
O=C(Nc1cccc(F)c1)c1cc(Br)ccc1O | - | - | CNCTC MY331/88 | MIC | 8 µM
CC(C)c1ccc2c(c1)CCC1[C@@]2(C)CCC[C@]1(C)C(=O)O | - | - | H37Rv (ATCC 27294) | MIC | 64 µg/mL
Cc1c(Cc2ccccc2Cl)c(=O)n2c([nH]c3ccccc32)c1C#N | broth dilution | - | H37Rv | MIC | >128 µg/mL
COC1/C=C/OC2(C)Oc3c(C)c(O)c4c(c3C2=O)C(=O)C([N+](=O)[O-])=C(NC(=O)/C(C)=C\C=C\C(C)C(O)C(C)C(O)C(C)C(OC(C)=O)C1C)C4=O | resazurin | - | H37Rv | MIC bound | <6.25 µg/mL
CCCCc1nc(Cl)c(C2C(C(=O)Nc3ccc(F)cc3)=C(C)NC(C)=C2C(=O)Nc2ccc(F)cc2)[nH]1 | resazurin | 6.25 µg/mL | H37Rv | inhibition | 100%
CCc1nc2cc(C)ccn2c1C(=O)NCc1ccc(S(F)(F)(F)(F)F)cc1 | resazurin | - | H37Rv | MIC90 | <2 µM
CCCCCCCCCCCC(=O)OCC1OC(O[C@H]2CC[C@@]3(C)C(=CCC4C3CC[C@@]3(C)C4CC[C@@H]3[C@H](C)CC[C@@H](CC)C(C)C)C2)C(O)C(O)C1O | - | - | H37Rv (ATCC 27294) | MIC | 32 µg/mL
Cc1ccc(C)n1-c1nc(-c2ccc(F)cc2)cs1 | resazurin | - | H37Rv | MIC | 0.2 µg/mL
COc1ccc(OC)c(NC(=O)CCC/C(CC(=O)c2ccc(O)c(OC)c2)=N\NC(=O)C[N+](C)(C)C)c1.[Cl-] | BACTEC | 12.5 µg/mL | H37Rv | inhibition | 24%
Cc1ccc(OCc2cn(-c3ccc(OC[C@@]4(C)Cn5cc([N+](=O)[O-])nc5O4)cc3)nn2)cc1 | broth dilution / resazurin | - | ss18b non-replicating phase | MIC | 8.66 µM
NC(=S)Nc1c(O)cccc1O | - | - | H2 | MIC | 7.81 µM
Cc1ccc(C(=O)Nc2cccc([N+](=O)[O-])c2)c(O)c1 | - | - | CNCTC MY331/88 | MIC | 8 µM
Cc1cn2c(C(=O)NCc3ccc(N4CCN(c5ccc(S(F)(F)(F)(F)F)cc5)CC4)c(F)c3)c(C)nc2s1 | resazurin | - | H37Rv | MIC90 | <2 µM
CO[C@H]1/C=C/O[C@@]2(C)Oc3c(C)c(O)c4c(O)c(c(N5CCN(Cc6c(C)cc(C)cc6C)CC5)c(O)c4c3C2=O)NC(=O)/C(C)=C\C=C\[C@H](C)[C@H](O)[C@@H](C)[C@@H](O)[C@@H](C)[C@H](OC(C)=O)[C@@H]1C | - | - | 3181-4 | MBC | 0.06 µg/mL
CCCCCCC.CN1C(=O)CN=C(c2ccc[nH]2)c2cc(Cl)ccc21 | BACTEC | - | H37Rv | MIC bound | >12.5 µg/mL
CCn1cc(C(=O)O)c(=O)c2cc(F)c(N3CCN(C)CC3)cc21 | - | - | 9 isolates (RMP INH-S) | MIC90 | 16 µg/mL
O=C(O)c1c(-c2ccccc2)oc(-c2ccccc2)c1C(=O)O | BACTEC | 12.5 µg/mL | H37Rv | inhibition | 6%
CCn1cc(C(=O)O)c(=O)c2cc(F)c(N3CCN(Cn4c(O)c(N=NC(N)=S)c5cc(Br)ccc54)CC3)cc21 | BACTEC | 12.5 µg/mL | H37Rv | inhibition | 93%
C=C[C@]1(C)CCC2=C(CCC3[C@](C)(CO)CCC[C@@]23C)C1 | - | - | H37Rv (ATCC 27294) | MIC | 64 µg/mL
Cc1cc(C)cc(N=Nc2c(O)c3c(ccc4ccccc43)oc2=O)c1 | resazurin | 6.25 µg/mL | H37Rv | inhibition | 58%
Cc1ccc(NC(N)=S)cc1N | - | - | A67 | MIC | 1000 µM
O=C(Nc1ccc(Br)cc1)c1cc(F)ccc1O | - | - | CNCTC MY331/88 | MIC | 4 µM
C[C@]1(COc2ccc(-n3cc(COc4ccccc4F)nn3)cc2)Cn2cc([N+](=O)[O-])nc2O1 | broth dilution / resazurin | - | H37Rv | MIC | 0.54 µM
NNC(=O)c1ccncc1 | fluorescence / absorbance | - | H37Rv | EC90 | 1 µM
CC(=O)SC[C@H](C)C(=O)N1CCCC1C(=O)NC(Cc1ccccc1)C(=O)O | resazurin | 6.25 µg/mL | H37Rv | inhibition | 18%
O=c1oc2ccc(-c3ccccc3)cc2c(O)c1N=Nc1ccccc1[N+](=O)[O-] | resazurin | - | H37Rv | MIC | <6.25 µg/mL
NNC(=O)CCn1[nH]c(=O)c(Cl)c(Cl)c1=O | BACTEC | 12.5 µg/mL | H37Rv | inhibition | 3%
C[C@]1(COc2ccc(-c3cc(COc4ccc(C(F)(F)F)cc4)on3)cc2)Cn2cc([N+](=O)[O-])nc2O1 | broth dilution / resazurin | - | ss18b non-replicating phase | MIC | 7.75 µM
CCCCCCCCCCCCCCCCc1c(C(=O)OC)nc(N)[nH]c1=O | BACTEC | - | H37Rv | MIC bound | >12.5 µg/mL
CCn1cc(C(=O)O)c(=O)c2cc(F)c(N3CCN(Cn4c(O)c(N=NC(N)=S)c5ccccc54)CC3)cc21 | BACTEC | - | H37Rv | EC50 | <12.5 µg/mL
CCCCc1nc(Cl)c(C2C(C(=O)Nc3ccc([N+](=O)[O-])cc3)=C(C)NC(C)=C2C(=O)Nc2ccc([N+](=O)[O-])cc2)[nH]1 | resazurin | 6.25 µg/mL | H37Rv | inhibition | 99%
COc1cc2c(cc1OC)C1CC3(CC4c5cc(OC)c(OC)cc5CCN4CC3CO)C(CO)CN1CC2 | BACTEC | - | H37Rv | MIC | ≥12.5 µg/mL
O=C(Nc1ccc([N+](=O)[O-])cc1)c1ccccc1O | - | - | CNCTC MY331/88 | MIC | 8 µM
Cc1ccc2nc(C)c(C(=O)NCc3ccc(N4CCC(c5ccc(OC(F)(F)F)cc5)CC4)cc3)n2c1 | resazurin | - | H37Rv | MIC90 | <2 µM
CO[C@H]1/C=C/O[C@@]2(C)Oc3c(C)c(O)c4c(O)c(cc(O)c4c3C2=O)NC(=O)/C(C)=C\C=C\[C@H](C)[C@H](O)[C@@H](C)[C@@H](O)[C@@H](C)[C@H](OC(C)=O)[C@@H]1C | - | - | Aoyama B (PAS-resistant) | MIC | 12.5 µg/mL
O=C1CC2COc3ccc(OCCN4CCCC4)cc3C2=NN1c1ccccc1 | BACTEC | - | H37Rv | MIC bound | >12.5 µg/mL
C[C@]1(COc2ccc(-c3cc(COc4cccc(Cl)c4)on3)cc2)Cn2cc([N+](=O)[O-])nc2O1 | broth dilution / resazurin | - | H37Rv | MIC | 4.15 µM

The last 6 rows once more:

| compound | read by | dose | strain or isolate | measure | value |
|---|---|---|---|---|---|
| COc1cc2c(cc1OC)C1CC3(CC4c5cc(OC)c(OC)cc5CCN4CC3CO)C(CO)CN1CC2 | BACTEC | - | H37Rv | MIC | ≥12.5 µg/mL |
| O=C(Nc1ccc([N+](=O)[O-])cc1)c1ccccc1O | - | - | CNCTC MY331/88 | MIC | 8 µM |
| Cc1ccc2nc(C)c(C(=O)NCc3ccc(N4CCC(c5ccc(OC(F)(F)F)cc5)CC4)cc3)n2c1 | resazurin | - | H37Rv | MIC90 | <2 µM |
| CO[C@H]1/C=C/O[C@@]2(C)Oc3c(C)c(O)c4c(O)c(cc(O)c4c3C2=O)NC(=O)/C(C)=C\C=C\[C@H](C)[C@H](O)[C@@H](C)[C@@H](O)[C@@H](C)[C@H](OC(C)=O)[C@@H]1C | - | - | Aoyama B (PAS-resistant) | MIC | 12.5 µg/mL |
| O=C1CC2COc3ccc(OCCN4CCCC4)cc3C2=NN1c1ccccc1 | BACTEC | - | H37Rv | MIC bound | >12.5 µg/mL |
| C[C@]1(COc2ccc(-c3cc(COc4cccc(Cl)c4)on3)cc2)Cn2cc([N+](=O)[O-])nc2O1 | broth dilution / resazurin | - | H37Rv | MIC | 4.15 µM |